In test [1] the target is T1, HIV-1 protease (Human immunodeficiency virus type 1 group M subtype B, UniProt P04585). Briefly: biochemical. On the procedure:
(§1) HIV-1 protease was obtained and its active site concentration was determined at 25° C. Purified enzyme was stored as a 5-8 μM stock solution in 50 mM NaOAc (pH 5.0), 1 mM DTT, 1 mM EDTA, 0.05% reduced Triton X-100 at -80° C. Porcine pepsin was prepared as 1-2 mg/ml in 50 mM formic acid (pH 3.0). The peptide concentrations were adjusted for their protein content.
HIV-1 protease activity was measured at 25° C. using substrate I (Lys-Ala-Arg-Val-Nle-Phe (NO2) -Glu-Ala-Nle-NH2 wherein Nle is norleucine and Phe (NO2) is 4-nitrophenylalamine). In a typical assay, 2.5 μl of enzyme was added to 97.5 μl of buffer and 2.5 mM DTT in the presence or absence of varying concentrations of inhibitor. The reaction was initiated by the addition of 10 μl of a 4 mM solution of substrate I in water and monitored by following the decrease in absorption at […] in a 100 μl spectrophotometric cell. Pepsin was assayed using substrate II (Phe-Gly-His-Phe(NO2)-Phe-Ala-PheOCH3). […] Concentrations of substrate solutions were determined spectrophotometrically at […].
The enzyme was assayed in the presence of the inhibitor in 50 mM sodium formate at pH 4.25 and 2.5 mM DTT. […] Peptides 12a and 12b were assayed at pH 4.4 and contained 0.083% and 0.02% DMSO, respectively.

The chains behind the UniProt entries cited, without tags or fusion partners. Residues count along the entry.
UniProt P00791, 60-385: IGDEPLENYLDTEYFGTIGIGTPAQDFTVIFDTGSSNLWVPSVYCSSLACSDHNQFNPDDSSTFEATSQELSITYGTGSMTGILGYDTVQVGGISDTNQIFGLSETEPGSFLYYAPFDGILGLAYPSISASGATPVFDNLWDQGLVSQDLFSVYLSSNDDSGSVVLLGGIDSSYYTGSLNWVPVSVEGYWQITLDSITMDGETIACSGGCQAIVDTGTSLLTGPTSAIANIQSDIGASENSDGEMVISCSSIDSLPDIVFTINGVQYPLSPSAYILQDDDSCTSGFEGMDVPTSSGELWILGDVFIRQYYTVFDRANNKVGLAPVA

In test [2] the target is T2, Porcine pepsin (Sus scrofa, UniProt P00791).
T2 construct: porcine pepsinogen is converted to enzymatically active pepsin by loss of the first 44 N-terminal residues
Nature of the test: Inhibition of pepsin (substrate II). Type of test: biochemical. The following applies: fold higher for pepsin. On the procedure:
as §1
HIV-1 protease activity was measured at 25° C. using substrate I (Lys-Ala-Arg-Val-Nle-Phe (NO2) -Glu-Ala-Nle-NH2 wherein Nle is norleucine and Phe (NO2) is 4-nitrophenylalamine). In a typical assay, 2.5 μl of enzyme was added to 97.5 μl of buffer and 2.5 mM DTT in the presence or absence of varying concentrations of inhibitor. The reaction was initiated by the addition of 10 μl of a 4 mM solution of substrate I in water and monitored by following the decrease in absorption at […] in a 100 μl spectrophotometric cell. Pepsin was assayed using substrate II (Phe-Gly-His-Phe(NO2)-Phe-Ala-PheOCH3). The reaction was monitored by following the decrease in absorbance at 269 nm in a final volume of 110 μl of 50 mM formate buffer, pH 3.0, containing 150 mM and 160 μM enzyme and substrate, respectively, at 25° C. Concentrations of substrate solutions were determined spectrophotometrically at […].
Such selective inhibition facilitates treatment of HIV infected mammalian cells.

In test [3] the test system is HIV-1. The following applies: 2 mM, p24 band.
For test [4], the target named is T1, HIV-1 protease. Briefly: biochemical. To be noted: 1M NaCl, 50 mM sodium formate, pH 4.0, 2.5 mM DTT, 25° C.

Read-outs that look alike come from different tables or passages of the source.

Turning to `CC(C)C[C@H](NC(=O)[C@H](CC(=O)O)NC(=O)[C@@H](N)CCC(=O)O)C(=O)O` [Peptide 4, Glu--Asp--Leu], the Ki in test [1] (50 mM sodium formate pH 4.25, 2.5 mM DTT, substrate I 390 μM, 25° C., peptides 1, 2, 4 from apparent Km vs [I], others from 1/V vs [I]) was 50 ± 9 µM; in test [1] (2M NaCl, 50 mM sodium formate, pH 4.0, 2.5 mM DTT, 25° C.), 1000 ± 170 µM; in test [1] (NaCl 0 M, 50 mM sodium formate pH 4.25, 2.5 mM DTT, 1/V vs [I]), 52 ± 10 µM; in test [1] (NaCl 1 M, 50 mM sodium formate pH 4.25, 2.5 mM DTT, 1/V vs [I]), 435 ± 65 µM; in test [1] (NaCl 2 M, 50 mM sodium formate pH 4.25, 2.5 mM DTT, 1/V vs [I]), 1000 ± 170 µM; in test [4] it was 435 ± 65 µM. Further, the “Ki for pepsin relative to Ki for HIV protease” value in test [2] is “about 150 fold”. Also, the “reduction of Gag processing” value was found to be 50% in test [3] (cell-extracted samples) and 70% in test [3] (supernatant samples).

For the origin of these results see US5872210A (priority 1995, dated 1999).
